Consider four compounds from article PMC11856326, “Structure-activity studies of bispyridinium antinicotinics to select candidates to treat soman intoxication as part of a combined therapy” (2025).

Assay [1] deals with soman-poisoned guinea pig diaphragm. Nature of the assay: Diaphragm muscle assay: recovery of tetanic response in soman-poisoned phrenic nerve-hemidiaphragm.
Assay [2] deals with guinea-pigs challenged with soman, sarin or tabun. The settings on record: in combination with physostigmine and hyoscine; equimolar doses; cited from earlier work.

SMILES strings stand for the structures.

Turning to `c1cc[n+](CCCCC[n+]2ccccc2)cc1`, the “concentrations that inhibited the response” value in assay [1] (broader concentration range, soman-poisoned diaphragm) is “over 300 µM”.

For `CC(C)(C)c1cc[n+](CCC[n+]2ccc(C(C)(C)C)cc2)cc1.CS(=O)(=O)[O-].CS(=O)(=O)[O-]`, in assay [2], the “protection against tabun in guinea pigs” value was “good protection”.

As to `CC(C)(C)c1cc[n+](CCC[n+]2ccc(C(C)(C)C)cc2)cc1`, the “recovery of neuromuscular function (tetanus and twitch responses)” value in assay [1] (soman 100 nM, compounds at 10, 30 and 100 µM cumulatively, n = 4) is recorded as “maximum recovery”.

In the case of `NC(=O)c1cc[n+](COC[n+]2ccccc2/C=N/O)cc1`, in assay [2], the “protection against tabun in guinea pigs” value is listed as “insufficient to provide protection”.
